Reference: publication PMC8637272

How the values were obtained:
[1] = molecular target: T1, enolase (ENO) (Mycoplasma gallisepticum S6) (UniProt A0A0F6CKZ5); assay: AFM; details: high-molecular fibril-like complexes; AFM: 20 mM Tris-HCl pH 7.5 (Methods); recombinant protein; residues 1-475; label: 5'-6-FAM on forward strand; probe letters rebuilt from the primers and the genome
[2] = molecular target: T1, enolase (ENO) (Mycoplasma gallisepticum S6); assay: EMSA; details: EMSA: 20 mM carbonate buffer pH 9.8, 6% glycerol, 2.5 pmol FAM-DNA, 10 min 37 C, 6% acrylamide gel at 10 C, recombinant protein, residues 1-475, label: 5'-6-FAM on forward strand, probe letters rebuilt from the primers and the genome

“CGCTTCTTTTAACAATCCAGCAATCTTATTTACATGTTCAATCTTTTTTTGAATAATTGCTTTCATTGTGTATTTAAAATTCAATTAGTAAAGTGAAAACAATAACAAAGATTGTTATTAGATATGGTTATCTAACCTACATAACGAATTAAGGAAATCAAGTGATTTACCAGTTATGGTCTTTGGTTATTGCTTTAATAGTATATCATTCTTTACTTTATTTTTAAAGTATTCTTATGGAATTAGCTATCTTCACTTAAATTCTACTAAACACCACTACATCTGAACATGTCAG (double strand) [PrplJ]”: binds [1].
Work on “GGTGAATGCTTTTTCGATGAACTTTTTAATTCAGTAAAATTTCGAATTTTTTAAACTGGTGGTTTAAAAAATTTTTTATCAATTATTAATAATAATATTAAAATTAAAAACGAGAGTTAATTCAAAATATAAACTATAAAGAAAGAGAAAACTTAAATGTCAAAAATTAAAATTGGTATTAACGGGTTCGGACGC (double strand) [Pgapd]” yielded a Kd ([2]; Hill n 2.7 +/- 0.8) of 1.1 µM.
In the case of “TTTGGTTTATTTAAATACCACAAGAAAAAAATTCGCGAATATCTTTATAGATTTGTTTTTATTTTTATAAAATAAATAAAGAAATCATTTCAATAAAAAAATAACAAAAGAAGAAAATAAAATGGCAAAGACAAACAGTACTA (double strand) [Peno]”, the Kd ([2]; Hill n 3.1 +/- 0.6) is reported as 1 µM.

For at least one entry, the source does not settle the construct or the ends of the probe.
